Anti-infective test results gathered from many reports (values: NIAID ChemDB through PubChem).

All rows: enzyme or target tests

Blank or dashed fields: not listed here.

SMILES,strain or isolate,tested at,target,read by,species,endpoint,value
Nc1nc(N)c(N=C/C=C/c2ccc([N+](=O)[O-])cc2)c(-c2ccccc2)n1,TYPE II,-,Dihydrofolate reductase,-,Cryptosporidium parvum,IC50,>100 µM
O=C(O)c1cn(C2CC2)c2cc(N3CCNCC3)ccc2c1=O,-,-,DNA gyrase,-,Streptococcus pneumoniae,IC50,179 µg/mL
Fc1ccccc1N1CCN(c2cncc(-c3ccsc3)n2)CC1,-,1 µM,UL97 kinase,-,Cytomegalovirus,inhibition,<50%
N[C@@H]1[C@H](O)[C@@H](O)[C@H](O)[C@@H]2O[C@H]12,-,100 µM,Amyloglucosidase,-,Aspergillus niger,inhibition,0%
COc1c(N2C[C@@H]3CCCN[C@@H]3C2)ccc2c(=O)c(C(=O)O)cn(C3CC3)c12,-,-,Topoisomerase II,-,Streptococcus pneumoniae,IC50,4.95 µg/mL
COc1ccc(N2CCN(c3cncc(-c4ccc(C(C)(C)C)cc4)n3)CC2)cc1OC,-,-,UL97 kinase,-,Cytomegalovirus,IC50,<100 µM
Cc1ccc(Cl)c2nc(N3CCN(C(=O)c4ccc([N+](=O)[O-])o4)CC3)sc12,-,-,Thioredoxin reductase,-,Plasmodium vivax,IC50,<4 µM
CCN(CC)C(=O)[C@@H]1C=C(C(=O)O)OC[C@H]1NC(C)=O,Victoria,-,Influenza virus sialidases,fluorescence,Influenza B virus,IC50,>100 µM
O=C(O)CP(=O)(O)O,-,2.5 µg/mL,DNA polymerase,-,Epstein-Barr virus,inhibition,51.5%
CC(C)CCn1c(Sc2ccc(C#N)c([N+](=O)[O-])c2)nnc1-c1ccc(Cl)cc1,-,-,Thioredoxin reductase,-,Plasmodium vivax,IC50,<4 µM
CC(C)C(=O)N[C@H]1C([C@H](C)[C@@H](O)CO)OC(C(=O)O)=C[C@@H]1N=[N+]=[N-],TYPE 2,-,Neuraminidase,-,Parainfluenza virus,IC50,1.6 µM
COc1cc(CCc2cc3c(N)nc(N)nc3s2)c(Br)c(OC)c1OC,TYPE 1,-,Dihydrofolate reductase,-,Cryptosporidium parvum,IC50,5.1 µM
CSc1ccc(-c2cncc(N3CCN(c4ccc(C(C)=O)cc4)CC3)n2)cc1,-,-,UL97 kinase,-,Cytomegalovirus,IC50,<1 µM
Nc1nc(N)c2c(CNc3cc(Cl)c(-n4cccc4)c(Cl)c3)c(Br)sc2n1,TYPE 1,-,Dihydrofolate reductase,-,Cryptosporidium parvum,IC50,>10 µM
O=C(O)c1cccc(N2C(=O)C(=Cc3ccc(-c4cc(C(F)(F)F)ccc4Cl)o3)SC2=S)c1,-,-,NS5 polymerase,-,Bovine viral diarrhea virus,IC50,≤1 µM
O=C(NO)c1ccccn1,-,-,RNA-dependent RNA polymerase,-,Influenza A virus,IC50,>7500 µM
Nc1nc(N)c2c(CNc3cc(Cl)c(-n4cccc4)c(Cl)c3)csc2n1,-,10 µM,DHFR,-,Toxoplasma gondii,inhibition,<30%
CN(Cc1cnc(N)nc1N)c1ccc(C(=O)NC(CCC(=O)O)C(=O)O)cc1,TYPE I,-,Dihydrofolate reductase,-,Cryptosporidium parvum,IC50,0.006 µM
CC(C)(C)NC(=O)[C@@H]1C=C(c2ccccc2)CN1C(=O)[C@@H](O)[C@H](Cc1ccccc1)NC(=O)[C@H](CC(N)=O)NC(=O)OCc1ccccc1,-,0.05 µM,Protease,-,HIV-1,inhibition,50.2%
CO[C@H](C(=O)NO)[C@@H](CC(C)C)C(=O)N[C@H](C(=O)O)c1ccccc1,-,-,PfM17LAP,fluorescence,Plasmodium falciparum,Ki,0.025 µM
O=c1[nH]c2cc3ccccc3cc2c(=O)n1O,-,-,RNA-dependent RNA polymerase,-,Influenza A virus,IC50,>50 µM
Oc1ccc(CN[C@@H]2[C@H](O)[C@@H](O)[C@H](O)[C@H]3O[C@@H]23)cc1,-,100 µM,Beta-D-xylosidase,-,Aspergillus niger,inhibition,86%
Nc1nc2c(ncn2COCCOP(=O)(O)OP(=O)(O)OP(=O)(O)O)c(=O)[nH]1,-,-,DNA polymerase,-,Epstein-Barr virus,Ki,0.007 µM
Nc1nc(N)c2nc(Cc3ccc4ccccc4c3)c(Cc3ccc4ccccc4c3)nc2n1,TYPE 1,-,Dihydrofolate reductase,-,Cryptosporidium parvum,IC50,>10 µM
N[C@@H](CS)C(=O)N[C@@H](Cc1ccccc1)C(=O)N1CCC[C@H]1C(=O)N[C@@H](Cc1c[nH]c2ccccc12)C(=O)NCC(=O)N[C@@H](CS)C(=O)O,-,-,Polymerase,-,Respiratory syncytial virus,IC50,>150 µM
NC1CCN(c2c(F)cc3c(=O)c(C(=O)O)cn(C4CC4)c3c2Cl)C1,-,-,DNA gyrase,-,Streptococcus pneumoniae,IC50,20.4 µg/mL
O[C@@H]1[C@@H](O)[C@@H](NCc2ccc(-c3ccncc3)cc2)[C@H]2O[C@H]2[C@H]1O,-,100 µM,Amyloglucosidase,-,Aspergillus niger,inhibition,0%
O=C(NO)c1ncc[nH]c1=O,-,-,RNA-dependent RNA polymerase,-,Influenza A virus,IC50,>6500 µM
COc1cc(NCc2csc3nc(N)nc(N)c23)cc(OC)c1OC,-,10 µM,DHFR,-,Toxoplasma gondii,inhibition,<30%
O=C([O-])c1c(F)c(F)cc(F)c1F,Can2,-,Beta-carbonic anhydrase,-,Cryptococcus neoformans,Ki,49.1 µM
O=C(O)CN1C(=O)C(=Cc2ccc(-c3cccc(C(F)(F)F)c3)o2)SC1=S,-,-,NS5 polymerase,-,Bovine viral diarrhea virus,IC50,≤1 µM
O=C(c1ccno1)N1CCC(Cn2c(=O)cc(Nc3ccc4c(c3)CCC4)[nH]c2=O)CC1,-,-,DNA polymerase,-,Staphylococcus aureus,IC50,0.07 µM
CCCCCn1c(Sc2ccc(C#N)c([N+](=O)[O-])c2)nnc1-c1cccs1,-,-,Thioredoxin reductase,-,Plasmodium berghei,IC50,4.8 µM
COc1ccc(OC)c(-c2sc3nc(N)nc(N)c3c2C)c1,TYPE 2,-,Dihydrofolate reductase,-,Cryptosporidium parvum,IC50,2.6 µM
Nc1nc(-c2ccc(NC(=O)CN(Cc3ccncc3)C(=O)C3CCCCC3)cc2)cs1,-,-,Helicase,-,Herpes simplex virus 1,IC50,0.1 µM
CCc1cc(Nc2cc(=O)n(CC3CCN(C(=O)c4ccno4)CC3)c(=O)[nH]2)ccc1C,-,-,DNA polymerase,-,Staphylococcus aureus,IC50,0.09 µM
COc1cccc2c1CCc1nc(N)nc(N)c1-2,TYPE 2,-,Dihydrofolate reductase,-,Cryptosporidium parvum,IC50,0.72 µM
Nc1nc(-c2ccccc2)c(CCCNc2ccc(C(=O)NC(CCC(=O)O)C(=O)O)cc2)c(=O)[nH]1,TYPE I,-,Dihydrofolate reductase,-,Cryptosporidium parvum,IC50,>100 µM
Oc1cc(O)c2c(c1)O[C@H](c1cc(O)c(O)c(O)c1)[C@@H](O)C2,-,10 µg/mL,DNA polymerase,-,Epstein-Barr virus,inhibition,67.1%
O=C(NO)c1ccc[nH]c1=O,-,-,RNA-dependent RNA polymerase,-,Influenza A virus,IC50,>6500 µM
CS(=O)(=O)CCCN1C(=O)c2ccccc2C(CC(=O)c2ccccc2)C1=O,Serotype 2,-,Protease,-,Rhinovirus,IC50,3.1 µM
O=C(O)c1ccc(N2C(=O)C(=Cc3ccc(-c4ccccc4)o3)SC2=S)cc1,-,-,NS5 polymerase,-,Bovine viral diarrhea virus,IC50,≤1 µM
O[C@@H]1[C@@H](O)[C@@H](NCc2ccc(-c3ccccc3)cc2)[C@H]2O[C@H]2[C@H]1O,-,100 µM,Amyloglucosidase,-,Aspergillus niger,inhibition,16%
O=C(O)c1ccc(-n2c(O)c(C=c3cc/c(=C4\C=c5ccccc5=N4)o3)sc2=S)cc1,-,-,NS5 polymerase,-,Bovine viral diarrhea virus,IC50,≤1 µM
COc1cc(N(C)Cc2c(Br)sc3nc(N)nc(N)c23)cc(OC)c1OC,TYPE 1,-,Dihydrofolate reductase,-,Cryptosporidium parvum,IC50,>10 µM
CCCCCCC1N=C(N)N=C(N)N1c1ccc(Cl)cc1,TYPE I,-,Dihydrofolate reductase,-,Cryptosporidium parvum,IC50,200 µM
C=CC[C@H](NC(=O)COc1cccc2ccccc12)C(=O)N[C@@H](Cc1ccccc1)[C@H](O)C(=O)N1CSC[C@H]1C(=O)NC(C)(C)C,-,0.05 µM,Protease,-,HIV-1,inhibition,92.7%
COc1ccc(N2CCN(c3cncc(-c4ccc(CO)cc4)n3)CC2)cc1OC,-,1 µM,UL97 kinase,-,Cytomegalovirus,inhibition,<50%
CCOC(=O)CCCN1C(=O)Cc2ccccc2C1=O,Serotype 2,-,Protease,-,Rhinovirus,IC50,>200 µM
CC(=O)CC1(O)c2c3[nH]c4ccccc4c3cc[n+]2C2C=CC=CC21,-,-,p56lck tyrosine kinase,ELISA,-,IC50,<600 µM
Cc1cccc(CC2CCc3nc(N)nc(N)c3C2)c1,TYPE 2,-,Dihydrofolate reductase,-,Cryptosporidium parvum,IC50,0.81 µM
O=c1[nH]c(=O)n([C@@H]2O[C@H](CO)[C@@H](O)[C@@H]2O)cc1/C=C/Br,91075,5 µM,Thymidine kinase,-,Herpes simplex virus 1,inhibition,<0%
Nc1nc(N)c2c(n1)CCCc1cc(Cl)c(Cl)cc1-2,TYPE 1,-,Dihydrofolate reductase,-,Cryptosporidium parvum,IC50,>10 µM
CCOC(=O)CCCN1C(=O)c2ccccc2C(C(=O)c2ccccc2)C1=O,Serotype 14,-,Protease,-,Rhinovirus,IC50,55.4 µM
C/C=C/c1cn([C@H]2C[C@H](O)[C@@H](CO)O2)c(=O)[nH]c1=O,C42,100 µM,Thymidine kinase,-,Herpes simplex virus 1,inhibition,100%
CCC(CC)O[C@@H]1C=C(C(=O)O)CC[C@H]1NC(C)=O,Victoria,-,Influenza virus sialidases,fluorescence,Influenza B virus,IC50,0.83 µM
CC(C)(C)OC(=O)N[C@@H](Cc1ccccc1)C(=O)N[C@@H](CO)C(=O)N[C@@H](Cc1ccccc1)[C@H](O)C(=O)NCC1CCCCC1,-,1000 µM,Protease,-,HIV-1,inhibition,53%
CC1c2nc(N)nc(N)c2CN1C(=O)c1ccccc1,TYPE I,-,Dihydrofolate reductase,-,Cryptosporidium parvum,IC50,>100 µM
COc1ccc(-c2cncc(N3CCN(c4ccc(F)cc4)CC3)n2)cc1OC,-,1 µM,UL97 kinase,-,Cytomegalovirus,inhibition,<50%
CC(C)Oc1cccc(OCC(=O)N[C@@H](CS(C)(=O)=O)C(=O)N[C@@H](Cc2ccccc2)[C@H](O)C(=O)N2CSC(C)(C)[C@H]2C(=O)NC(C)(C)C)c1,-,0.05 µM,Protease,-,HIV-1,inhibition,98%
Nc1nc2c(ncn2CC[C@@H](CO)COP(=O)(O)OP(=O)(O)OP(=O)(O)O)c(=O)[nH]1,-,-,DNA polymerase,-,Herpes simplex virus 2,Ki,5.8 µM
C[C@H]1NCc2cc(-c3c(F)cc4c(=O)c(C(=O)O)cn(C5CC5)c4c3OC(F)F)ccc21,-,-,DNA gyrase,-,Streptococcus pneumoniae,IC50,11.6 µg/mL
CSCCCN1C(=O)c2ccccc2C(C(=O)c2ccccc2)C1=O,Serotype 14,-,Protease,-,Rhinovirus,IC50,56 µM

Repeating the first 4 entries:

SMILES,strain or isolate,tested at,target,read by,species,endpoint,value
Nc1nc(N)c(N=C/C=C/c2ccc([N+](=O)[O-])cc2)c(-c2ccccc2)n1,TYPE II,-,Dihydrofolate reductase,-,Cryptosporidium parvum,IC50,>100 µM
O=C(O)c1cn(C2CC2)c2cc(N3CCNCC3)ccc2c1=O,-,-,DNA gyrase,-,Streptococcus pneumoniae,IC50,179 µg/mL
Fc1ccccc1N1CCN(c2cncc(-c3ccsc3)n2)CC1,-,1 µM,UL97 kinase,-,Cytomegalovirus,inhibition,<50%
N[C@@H]1[C@H](O)[C@@H](O)[C@H](O)[C@@H]2O[C@H]12,-,100 µM,Amyloglucosidase,-,Aspergillus niger,inhibition,0%

Lines come from different laboratories, so protocols vary. ICn: concentration for n% inhibition. Percent inhibition refers to the dose given; in toxicity tests it is the harm to the cells.